What follows are compounds tested on peritoneal murine macrophages (PMM) (assay: Cytotoxicity on peritoneal murine macrophages (MTT)). Conditions: Table S1.
Format: cell-based, Balb/c mice

Row | Structure (SMILES) | SI: Specificity Index (EC50 PMM/EC50 amas. ax)
1 | O=C(CCl)c1ccc(Br)s1 [Compound 6] | 4.0
2 | O=C(CCl)c1ccc(Cl)cc1 [Compound 7] | 14.6
3 | O=C(CCl)c1cc(Cl)sc1Cl [Compound 8] | 1.5
4 | O=C(CCl)c1cc(Br)c(Br)s1 [Compound 10] | 6.6
5 | CC(=O)C1=C(c2c[nH]c3ccccc23)C(=O)NC1=O [Compound 16] | > 20.0
6 | COc1ccc(-n2cnc3cc(C(=O)CBr)ccc32)cc1 [Compound 17] | > 5.6
7 | COc1ccc(CNC(=O)Nc2nc(C)c(C(=O)CBr)s2)cc1 [Compound 19] | 2.2

Reference: publication PMC6882465, “Towards discovery of new leishmanicidal scaffolds able to inhibit Leishmania GSK-3” (Journal of Enzyme Inhibition and Medicinal Chemistry, 2019)
